From the supplement of paper PMC9262897, “Low-cost anti-mycobacterial drug discovery using engineered E. coli” (Nature Communications, 2022)
± gives the standard deviation of the averaged measurements. Only a part is listed here, and it is no random draw.

What follows are molecules tested on E. coli TESEC Mtb Alr (assay: growth (OD600 after 10 h); higher = more growth (less inhibition)). Conditions: arabinose 100 nM; compound 0.1 mM; raw OD600 reference: median of DMSO wells 0.413, cell-free background 0.052.
Procedure: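 TESEC Mtb Alr E. coli (ΔaraC ΔtolC ΔentC Δalr ΔdadX, arabinose-inducible Mtb Alr) or the Alr+ wild-type control strain, grown in defined M9-fructose medium without D-alanine in 96-well plates with Prestwick library compounds at 0.1 mM and 1% DMSO. Low Alr induction is 0.1 µM arabinose and high induction is 10 mM arabinose.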
`COc1cc(Br)c(C[N+]2(CCOCCC3CCC4CC3C4(C)C)CCOCC2)cc1OC` (configuration not stated) [Pinaverium bromide] showed a growth of 0.0525 ± 0.0023.

Same assay, conditions: arabinose 10000000 nM; compound 0.1 mM; raw OD600 reference: median of DMSO wells […], cell-free background 0.052
`COc1cc(Br)c(C[N+]2(CCOCCC3CCC4CC3C4(C)C)CCOCC2)cc1OC` (configuration not stated) [Pinaverium bromide] showed a growth of 0.0511 ± 0.0003.
